## Kdimer by position in the HIV-1 leader RNA

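Randomly mutated transcripts starting with one, two or three G (1G, 2G, 3G), capped or uncapped, were folded for 30 min at 37 °C. High salt was 300 mM KCl and 5 mM MgCl2, low salt 40 mM KCl and 0.1 mM MgCl2; monomer and dimer were parted on a native gel. Kdimer compares mutation frequencies in monomer and dimer, corrected for sequencing errors.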

The 5' region of HIV-1 NL4-3 RNA (positions 1-437):
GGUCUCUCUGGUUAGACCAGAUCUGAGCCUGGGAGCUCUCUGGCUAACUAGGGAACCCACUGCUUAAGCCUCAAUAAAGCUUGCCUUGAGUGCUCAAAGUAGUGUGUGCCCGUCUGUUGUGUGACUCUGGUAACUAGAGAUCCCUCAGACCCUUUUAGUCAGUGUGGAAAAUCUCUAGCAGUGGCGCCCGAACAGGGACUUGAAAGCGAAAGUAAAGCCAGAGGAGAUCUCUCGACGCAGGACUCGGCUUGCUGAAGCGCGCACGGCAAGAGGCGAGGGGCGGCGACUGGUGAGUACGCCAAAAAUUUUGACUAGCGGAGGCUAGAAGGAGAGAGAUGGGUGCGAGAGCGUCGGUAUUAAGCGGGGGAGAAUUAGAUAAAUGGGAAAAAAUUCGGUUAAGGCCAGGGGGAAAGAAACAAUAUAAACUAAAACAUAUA

Scale: median log2 Kdimer over the changes at a position; positive = changes inhibit dimerization, negative = changes enhance it.
One numbering serves 1G, 2G and 3G.
A position is written with its base where known.
The source gives no letters past position 437.

position | 1G capped high-salt | 2G uncapped low-salt | 1G uncapped low-salt
A26 | 0.19 | -0.07 | 0.09
G27 | -0.72 | -0.72 | -0.91
G32 | -0.12 | -0.08 | -0.21
U39 | 0.24 | -0.21 | -0.03
U41 | -0.24 | -0.66 | -0.49
U45 | -0.10 | -0.13 | -0.07
A50 | 0.10 | -0.32 | -0.15
G51 | -0.02 | -0.14 | 0.00
U64 | 0.40 | 0.09 | 0.15
C70 | 0.25 | 0.21 | 0.08
U91 | 0.08 | -0.24 | -0.02
C95 | 0.07 | 0.23 | 0.10
G104 | 0.12 | 0.06 | -0.03
G112 | -0.04 | 0.18 | 0.29
A149 | 0.18 | -0.07 | -0.24
U156 | -0.02 | -0.11 | -0.20
G158 | -0.58 | -0.49 | -0.32
U172 | -0.16 | 0.38 | 0.46
G202 | -0.13 | -0.37 | -0.10
A203 | 0.50 | 0.72 | 0.50
A205 | 0.17 | -0.12 | 0.05
G221 | -0.29 | 0.37 | 0.49
C229 | 0.36 | 0.32 | 0.24
C243 | 0.60 | 1.07 | 1.06
C274 | 0.53 | 1.32 | 1.03
G283 | -0.13 | -0.13 | -0.09
A301 | 0.29 | 0.37 | 0.32
G321 | 0.28 | 0.82 | 0.75
G335 | 0.20 | 0.43 | 0.25
G342 | 0.21 | 0.16 | -0.12
A379 | -0.11 | 0.06 | 0.01
U397 | 0.01 | -0.14 | 0.04
A398 | 0.06 | -0.01 | 0.02
G401 | -0.13 | 0.00 | -0.21
C403 | -0.13 | -0.29 | -0.08
G407 | 0.08 | -0.02 | -0.02
A414 | 0.02 | 0.01 | 0.09
C417 | 0.00 | 0.00 | 0.28
U420 | 0.02 | -0.06 | -0.02
A437 | 0.06 | 0.11 | -0.02
444 | 0.13 | 0.14 | 0.08
463 | 0.08 | -0.05 | -0.01
472 | 0.02 | -0.02 | -0.01

Extract of 5 entries:

| position | 1G capped high-salt | 2G uncapped low-salt | 1G uncapped low-salt |
|---|---|---|---|
| C70 | 0.25 | 0.21 | 0.08 |
| C95 | 0.07 | 0.23 | 0.10 |
| U91 | 0.08 | -0.24 | -0.02 |
| A149 | 0.18 | -0.07 | -0.24 |
| C274 | 0.53 | 1.32 | 1.03 |

From the data files of Ye et al. 2022, doi:10.1038/s41594-022-00746-2.